# Laboratory results published in patent US6750008B1, “Methods and compositions for inhibition of membrane fusion-associated events, including HIV transmission” (priority 1999, dated 2004).
# Test system: HIV-1LAI virus
# Conditions: for IC50, inhibition of RT production: 247 TCID50 HIV-1LAI, CEM cells, 7 days; for inhibition of HIV-1 cell free virus infection: FIG. 1 legend
# Experimental: Synthetic peptides were incubated at 37° C. with either 247 TCID50 (for experiment depicted in FIG. 2), or 62 TCID50 (for experiment depicted in FIG. 3) units of HIV-1LAI virus or 25 TCID50 units of HIV-2NIHZ and CEM CD4^+ cells at peptide concentrations of 0, 0.04, 0.4, 4.0, and 40 μg/ml for 7 days. The resulting reverse transcriptase (RT) activity in counts per minute was determined using the assay described, below, in Section 6.1.5. See Reed, L. J. et al., 1938, Am. J. Hyg. 27: 493-497 for an explanation of TCID50 calculations.
# The micro-reverse transcriptase (RT) assay was adapted from Goff et al. (Goff, S. et al., 1981, J. Virol. 38:239-248) and Willey et al. (Willey, R. et al., 1988, J. Virol. 62:139-147). Supernatants from virus/cell cultures are adjusted to 1% Triton-X100. A 10 μl sample of supernatant was added to 50 μl of RT cocktail in a 96-well U-bottom microtitre plate and the samples incubated at 37° C. for 90 min. The RT cocktail contained 75 mM KCl, 2 mM dithiothreitol, 5 mM MgCl2, 5 μg/ml poly A (Pharmacia, cat. No. 27-4110-01), 0.25 units/ml oligo dT (Pharmacia, cat. No. 27-7858-01), 0.05% NP40, 50 mM Tris-HCl, pH 7.8, 0.5 μM non-radioactive dTTP, and 10 μCi/ml ^32P-dTTP (Amersham, cat. No. PB.10167).
# After the incubation period, 40 μl of reaction mixture was applied to a Schleicher and Schuell (S+S) NA45 membrane (or DE81 paper) saturated in 2×SSC buffer (0.3M NaCl and 0.003M sodium citrate) held in a S+S Minifold over one sheet of GB003 (S+S) filter paper, with partial vacuum applied. Each well of the minifold was washed four times with 200 μl 2×SSC, under full vacuum. The membrane was removed from the minifold and washed 2 more times in a pyrex dish with an excess of 2×SSC. Finally, the membrane was drained on absorbent paper, placed on Whatman #3 paper, covered with Saran wrap, and exposed to film overnight at −70° C.
# DP178 (SEQ ID:1) was next tested for its ability to block CD-4^+ CEM cell infection by cell free HIV-1 virus. […] Each concentration (0, 0.04, 0.4, 4, and 40 μg/ml) of peptide was incubated with 247 TCID50 units of HIV-1LAI virus and CEM cells. After 7 days of culture, cell-free supernatant was tested for the presence of RT activity as a measure of successful infection.
SMILES,"IC50, inhibition of RT production",inhibition of HIV-1 cell free virus infection
CC[C@H](C)[C@H](NC(=O)CNC(=O)[C@H](Cc1c[nH]c2ccccc12)NC(=O)[C@@H](NC(=O)[C@@H](NC(=O)[C@H](CC(C)C)NC(=O)[C@H](CCC(N)=O)NC(=O)[C@H](CC(C)C)NC(=O)[C@H](CC(C)C)NC(=O)[C@H](Cc1c[nH]cn1)NC(=O)[C@H](CCC(N)=O)NC(=O)[C@H](CCC(N)=O)NC(=O)[C@H](C)NC(=O)[C@H](CCC(=O)O)NC(=O)[C@@H](NC(=O)[C@H](C)NC(=O)[C@H](CCCNC(=N)N)NC(=O)[C@H](CC(C)C)NC(=O)[C@H](CC(C)C)NC(=O)[C@H](CC(N)=O)NC(=O)[C@H](CC(N)=O)NC(=O)CNC(=O)CNC(=O)[C@H](CS)NC(C)=O)[C@@H](C)CC)[C@@H](C)O)C(C)C)C(=O)N[C@@H](CCCCN)C(=O)N[C@@H](CCC(N)=O)C(=O)N[C@@H](CC(C)C)C(=O)N[C@@H](CCC(N)=O)C(=O)N[C@@H](C)C(=O)N[C@@H](CCCNC(=N)N)C(=O)N[C@H](C(=O)N[C@@H](CC(C)C)C(=O)N[C@@H](C)C(=O)N[C@H](C(=O)N[C@@H](CCC(=O)O)C(=O)N[C@@H](CCCNC(=N)N)C(=O)N[C@@H](Cc1ccc(O)cc1)C(=O)N[C@@H](CC(C)C)C(=O)N[C@@H](CCCCN)C(=O)N[C@@H](CC(=O)O)C(=O)N[C@@H](CCC(N)=O)C(N)=O)C(C)C)[C@@H](C)CC [DP-125],approximately 5 μg/ml,inhibits HIV-1 cell free virus infection
CC[C@H](C)[C@H](NC(=O)[C@H](C)NC(=O)[C@@H](NC(=O)[C@@H](NC(=O)[C@H](CCCNC(=N)N)NC(=O)[C@H](C)NC(=O)[C@H](CCC(N)=O)NC(=O)[C@H](CC(C)C)NC(=O)[C@H](CC(N)=O)NC(=O)[C@H](CCCCN)NC(=O)[C@@H](NC(=O)CNC(=O)[C@H](Cc1c[nH]c2ccccc12)NC(=O)[C@@H](NC(=O)[C@@H](NC(=O)[C@H](CC(C)C)NC(=O)[C@H](CCCNC(=N)N)NC(=O)[C@H](CC(C)C)NC(=O)[C@H](CCSC)NC(=O)[C@H](CCC(=O)O)NC(=O)[C@H](CCC(N)=O)NC(=O)[C@H](CCC(N)=O)NC(=O)[C@H](CCCNC(=N)N)NC(=O)[C@H](CCCCN)NC(=O)[C@@H](NC(=O)[C@@H](NC(=O)[C@H](CC(=O)O)NC(=O)[C@H](CC(C)C)NC(=O)[C@H](CC(C)C)NC(=O)[C@H](CCC(N)=O)NC(=O)[C@H](CCC(N)=O)NC(C)=O)C(C)C)C(C)C)[C@@H](C)O)C(C)C)[C@@H](C)O)C(C)C)[C@@H](C)O)C(=O)N[C@@H](CCC(=O)O)C(=O)N[C@@H](CCCCN)C(=O)N[C@@H](Cc1ccc(O)cc1)C(=O)N[C@@H](CC(C)C)C(=O)N[C@@H](CCCCN)C(=O)N[C@@H](CC(=O)O)C(=O)N[C@@H](CCC(N)=O)C(N)=O [DP-118],approximately 5 μg/ml,inhibits HIV-1 cell free virus infection
